US20120244144A1 (University of Texas, published 2012)

Key:
Test in all cases: Western blot
[1] = target: pertussis toxin subunit S3 (Bordetella pertussis, UniProt P04979 29-227)
[2] = target: pertussis toxin subunit S5 (Bordetella pertussis, UniProt P04981 35-133)
[3] = target: pertussis toxin subunit S4 (Bordetella pertussis, UniProt P0A3R5 43-152)
[4] = target: pertussis toxin subunit S2 (Bordetella pertussis, UniProt P04978 28-226)

Measured: binding result

B1: hu1B7 humanized single-chain antibody (scAb) (scFv, not shown: a dimerising Fc or GST)
scFv: DIQMTQSPSSLSASVGDRVTITCSASSSVSFMYWYQQKPGKAPKLLIYLTSNLPSGVPSRFSGFGSGTDYTLTISSLQPEDFATYYCQQWSSHPPTFGQGTKVEIKRTGGGGSGGGGSGGGGSGGGGSEVQLVESGGGLVQPGGSLRLSCAASGYKFTSYWMHWVRQAPGKGLEWVGNIFPGSGSTNYDEKFNSRFTISVDTSKNTAYLQMNSLRAEDTAVYYCTRWLSGAYFDYWGQGTLVTVSS
notes: also called WT hu1B7
no binding: [1] | [2] | [3]

B2: m1B7 murine single-chain antibody (scAb) (scFv, not shown: a dimerising Fc or GST)
scFv: DIQMTQSPALMSASPGEKVTMTCSASSSVSFMYWYQQKPRSSPKPWIYLTSNLPSGVPARFSGSGSGTSYSLTISSMEAEDAATYYCQQWSSHPPTFGSGTKLEIKRGGGGSGGGGSGGGGSGGGGSEVQLQQSGSELVRPGASVKLSCKASGYKFTSYWMHWVKQRPGQGLEWIGNIFPGSGSTNYDEKFNSKATLTVDTSSNTAYMQLSSLTSEDSAVYYCTRWLSGAYFDYWGQGTTLTVSSASGA
no binding: [1] | [4] | [2] | [3]
